Laboratory results from publication PMC12276032, “Intracellular and Extracellular Efficacy of Homoisoflavone Derivatives Against Mycobacterium Tuberculosis: Progress Toward Novel Antitubercular Agents” (Chemmedchem, 2025).

How the values were obtained:
[1] = test system: Mycobacterium tuberculosis M299; type: cell-based; conditions: CC50 RAW 264.7 / MIC90 Mtb M299
[2] = test system: Mycobacterium tuberculosis H37Rv; assay: Mtb H37Rv growth inhibition in extracellular bacterial culture (MTT); type: cell-based; conditions: CC50 RAW 264.7 / MIC90 Mtb H37Rv

COc1cc(/C=C2\COc3ccccc3C2=O)ccc1O [Compound 17]
SI [CC50/MIC90] [1]: 2.1
SI [CC50/MIC90] [2]: 2.9

COc1ccc(/C=C2\COc3ccccc3C2=O)cc1 [Compound 10]
SI [CC50/MIC90] [1]: > 3.4
SI [CC50/MIC90] [2]: >5.9

O=C1/C(=C/c2ccc([N+](=O)[O-])o2)COc2cc(N3CCCCC3)ccc21 [Compound 41]
SI [CC50/MIC90] [1]: > 20 and 27.1

O=C1/C(=C/c2ccc([N+](=O)[O-])s2)COc2cc(N3CCCCC3)ccc21 [Compound 42]
SI [CC50/MIC90] [1]: 5.5
SI [CC50/MIC90] [2]: 1.9

O=C1/C(=C/c2ccc([N+](=O)[O-])o2)COc2ccccc21 [Compound 22]
SI [CC50/MIC90] [1]: > 20 and 27.7

O=C1/C(=C/c2ccc(O)c(Br)c2)COc2ccccc21 [Compound 19]
SI [CC50/MIC90] [1]: 4.3

COc1ccc(/C=C2\COc3cc(O)ccc3C2=O)cc1OC [Compound 34, (E)‐3‐(3,4‐Dimethoxybenzylidene)‐7‐Hydroxychroman‐4‐one]
SI [CC50/MIC90] [1]: > 20 and 23.8
SI [CC50/MIC90] [2]: > 3.4

O=C1/C(=C/c2ccc(-n3ccnc3)cc2)COc2ccccc21 [Compound 21]
SI [CC50/MIC90] [1]: 4.8
SI [CC50/MIC90] [2]: 3.6

O=C1/C(=C/c2ccc3c(c2)OCO3)COc2ccccc21 [Compound 15]
SI [CC50/MIC90] [1]: 3.5
SI [CC50/MIC90] [2]: 2.7

O=C1/C(=C/c2ccc(O)c(Cl)c2)COc2ccccc21 [Compound 18]
SI [CC50/MIC90] [1]: 2.1
SI [CC50/MIC90] [2]: 3.1

Several values for one entry are separate records, joined by “and”; a condition that tells them apart may be missing. Identical values can stand only once.
